Anti-infective test results gathered from many reports (values: NIAID ChemDB through PubChem).

All rows: whole-cell or culture tests; species: Candida albicans; measure: MIC50

A number after MIC or MFC names an inhibition level or a share of isolates. Blank or dashed fields: not listed here. Neighbouring rows are from separate reports.

SMILES,strain,method,setting,value
N#Cc1cccc(CSc2ncccc2CN2CCN(C(=N)N)CC2)c1,SC5314 CAI,,,>100 µg/mL
Cc1ccc(-c2c3c(N)c4c(nc3nc3c2c(C)nn3-c2ccccc2)CCCCC4)cc1,CCC 128,broth dilution / absorbance,,62.5 µg/mL
CCCCCOc1ccc(-c2cc(-c3ccc(C(=O)N[C@H]4C[C@@H](O)[C@@H](O)NC(=O)[C@@H]5[C@@H](O)[C@@H](C)CN5C(=O)[C@H]([C@H](O)CC(N)=O)NC(=O)[C@H]([C@H](O)[C@@H](O)c5ccc(O)c(OS(=O)(=O)O)c5)NC(=O)[C@@H]5C[C@@H](O)CN5C(=O)[C@H]([C@@H](C)O)NC4=O)cc3)no2)cc1,,broth dilution,,0.016 µg/mL
C=C(C)CN=C(N)NCCCCCCCN1CCCCCCCCN=C(N)NC1=O,4T,,,40 µM
N=C(N)N1CCN(Cc2cccnc2SCc2ccc(-c3ccccc3)cc2)CC1,SC5314 CAI,,,20 µg/mL
Nc1ncccc1-c1cc(Cc2ccc(COc3ccccn3)cc2)no1,IFM49971,broth dilution,30% human serum,0.06 µg/mL
CCC(C)CC(C)CCCCCCCCC(=O)N[C@H]1C[C@@H](O)[C@H](NCCN)NC(=O)[C@@H]2[C@@H](O)CCN2C(=O)[C@H]([C@H](O)CCN)NC(=O)[C@H]([C@H](O)[C@@H](O)c2ccc(O)cc2)NC(=O)[C@@H]2C[C@@H](O)CN2C(=O)[C@H]([C@@H](C)O)NC1=O,40 isolates azole-susceptible,,,0.2 µg/mL
CC(C)=CCCNC(N)=NCCCCCCCCCNCCCCCCCN=C(N)N,4T,,,80 µM
CCC(C)CC(C)CCCCCCCCC(=O)N[C@H]1C[C@@H](O)[C@@H](OCCN)NC(=O)[C@@H]2[C@@H](O)CCN2C(=O)[C@H]([C@@H](O)CCN)NC(=O)[C@H]([C@H](O)[C@@H](O)c2ccc(O)cc2)NC(=O)[C@@H]2C[C@@H](O)CN2C(=O)[C@H]([C@H](C)O)NC1=O,Fluconazole-resistant,,,0.01 µg/mL
N=C(N)N1CCN(Cc2cccnc2SCc2cccc(F)c2F)CC1,SC5314 CAI,,,>100 µg/mL
CCCCCCCCCCCCCCCC(=O)NC1CC(O)C(O)NC(=O)C2C(O)C(C)CN2C(=O)C(C(O)CC(N)=O)NC(=O)C(C(O)C(O)c2ccc(O)c(OS(=O)(=O)O)c2)NC(=O)C2CC(O)CN2C(=O)C(C(C)O)NC1=O,FP633,,,0.025 µg/mL
CCCCCOc1ccc(-c2cc(-c3ccc(C(=O)N[C@H]4C[C@@H](O)[C@@H](O)NC(=O)[C@@H]5[C@@H](O)[C@@H](C)CN5C(=O)[C@H]([C@H](O)CC(N)=O)NC(=O)[C@H]([C@H](O)[C@@H](O)c5ccc(O)c(OS(=O)(=O)O)c5)NC(=O)[C@@H]5C[C@@H](O)CN5C(=O)[C@H]([C@@H](C)O)NC4=O)cc3)no2)cc1,37 isolates,,,0.0078 µg/mL
C=CCSS(=O)CC=C,Clinical Isolate 3071,broth dilution,,1.56 µg/mL
CC(=O)N1CCN(c2ccc(OC[C@H]3CO[C@](Cn4ccnc4)(c4ccc(Cl)cc4Cl)O3)cc2)CC1,10 isolates azole-resistant,,,0.01 µg/mL
CCc1ccc(CSc2ncccc2CN2CCN(C(=N)N)CC2)cc1,SC5314 CAI,,,37.5 µg/mL
OC(Cn1cncn1)(Cn1cncn1)c1ccc(F)cc1F,Isolate M27-T-micro,,48 h,1.56 µg/mL
COc1ccc(-c2c3c(N)c4c(nc3nc3c2c(C)nn3-c2ccccc2)CCC4)cc1,ATCC 10231,broth dilution / absorbance,,250 µg/mL
N=C(N)N1CCN(Cc2cccnc2SCc2c(F)cccc2Cl)CC1,SC5314 CAI,,,>100 µg/mL
CCC(C)CC(C)CCCCCCCCC(=O)N[C@H]1C[C@@H](O)[C@H](NCCN)NC(=O)[C@@H]2[C@@H](O)CCN2C(=O)[C@H]([C@H](O)CCN)NC(=O)[C@H]([C@H](O)[C@@H](O)c2ccc(O)cc2)NC(=O)[C@@H]2C[C@@H](O)CN2C(=O)[C@H]([C@@H](C)O)NC1=O,10 strains (fluconazole-resistant),,,0.5 µg/mL
COC(/C=C/c1ccccc1)=C1/C(=O)C=C(C)C1=O,Isolate 8 azole-resistant,,,0.9 µg/mL
NC(N)=NCCCCCCCCCNCCCCCCCN=C(N)N,4T,,,80 µM
CCCCCCCCCCCCCCCC(=O)N[C@H]1C[C@@H](O)[C@@H](O)NC(=O)[C@@H]2[C@@H](O)[C@@H](C)CN2C(=O)[C@H]([C@@H](C)O)NC(=O)[C@H]([C@H](O)[C@@H](O)c2ccc(O)cc2)NC(=O)[C@@H]2C[C@@H](O)CN2C(=O)[C@H]([C@@H](C)O)NC1=O,FP633,,,0.06 µg/mL
Cc1nn(-c2ccccc2)c2nc3nc4c(c(N)c3c(-c3ccc(Cl)cc3)c12)CCCCC4,ATCC 10231,broth dilution / absorbance,,125 µg/mL
CC(C)=CCN=C(N)NCCCCCCCCCNCCCCCCCNC(N)=NCC=C(C)C,ATCC 60193,,,>80 µM
Cc1ccc(-c2c3c(N)c4c(nc3nc3c2c(C)nn3-c2ccccc2)CCCC4)cc1,CCC 126,broth dilution / absorbance,,15.6 µg/mL
Clc1ccc(C(Cn2ccnc2)OCc2csc3c(Cl)cccc23)c(Cl)c1,63 isolates,absorbance,24 h,0.5 µg/mL
Cc1ccc(-c2c3c(N)c4c(nc3nc3c2c(C)nn3-c2ccccc2)CCC4)cc1,CCC 129,broth dilution / absorbance,,62.5 µg/mL
NC(N)=NCCCCCCCNCCCCCCCCCNC(N)=NCC1CC1,ATCC 60193,,,20 µM

A second listing of 3 rows from above:

SMILES | strain | method | setting | value
CCCCCCCCCCCCCCCC(=O)N[C@H]1C[C@@H](O)[C@@H](O)NC(=O)[C@@H]2[C@@H](O)[C@@H](C)CN2C(=O)[C@H]([C@@H](C)O)NC(=O)[C@H]([C@H](O)[C@@H](O)c2ccc(O)cc2)NC(=O)[C@@H]2C[C@@H](O)CN2C(=O)[C@H]([C@@H](C)O)NC1=O | FP633 |  |  | 0.06 µg/mL
CCC(C)CC(C)CCCCCCCCC(=O)N[C@H]1C[C@@H](O)[C@H](NCCN)NC(=O)[C@@H]2[C@@H](O)CCN2C(=O)[C@H]([C@H](O)CCN)NC(=O)[C@H]([C@H](O)[C@@H](O)c2ccc(O)cc2)NC(=O)[C@@H]2C[C@@H](O)CN2C(=O)[C@H]([C@@H](C)O)NC1=O | 10 strains (fluconazole-resistant) |  |  | 0.5 µg/mL
N#Cc1cccc(CSc2ncccc2CN2CCN(C(=N)N)CC2)c1 | SC5314 CAI |  |  | >100 µg/mL